This passage reports MIC results from ChEMBL document CHEMBL1255335 (Antimicrob Agents Chemother, 2008).

This test relates to Klebsiella pneumoniae. To be noted: INSRA1229.

Consider GENTAMICIN, for which the minimum inhibitory concentration (MIC) is 0.5 µg/mL.
